Measured values from patent US20060246084.

Molecular target: IFN-γ receptor on human cells (no IFN-γ added), human, P15260 18-489
Test: […] paragraph 293 uses this token for binding not detectable

LcrV68-326, N-terminally truncated LcrV
result: no binding (tested: ≧10^-3 (Molar Kd))
